Patent US10456414B2, “Methods for treating HCV” (priority 2011, dated 2019)

Legend:
[1] = tested on: HCV genotype 1b replicon cells (Huh-luc); test: Antiviral activity assay in HCV Huh-luc replicon cells (Biological Example 5); assay type: cell-based; conditions: 3 days, IFN-α in Units per milliliter
Protocol: Serial dilutions were added to the cells at a 1:200 dilution to achieve a final concentration of 0.5% DMSO in a total volume of 200 μL.
EC50 values were calculated by nonlinear regression analysis of replicate data sets using XLfit 4 software (IDBS, Emeryville, Calif.).

[2] = tested on: HCV genotype 1b replicon cells (Huh-luc); test: EC50 determination in Huh-luc replicon cells (Biological Example 2); assay type: cell-based; conditions: 3 days, IFN-α in Units per milliliter
Protocol: Compounds were serially diluted 1:3 in 100% DMSO (Sigma). These serial dilutions were added to the cells at a 1:200 dilution to achieve a final concentration of 0.5% DMSO in a total volume of 200 μL. […] EC50 values were calculated from the resulting equations as described previously.

IFN-α
EC50 [1]: 0.05 U/ml ± 0.04 | EC50 [2]: 0.105 ± .003 U/mL
